In the supplement of paper PMC9931576:
Residue numbers refer to the chain shown, from its start. In names and notes the source's numbering stands. Human monoclonal antibodies against the spike receptor-binding domain (heavy:light variable regions). IC50 against pseudoviruses bearing the spike of naturally observed variants; lower = stronger; >10 µg/ml means not reached at the top dose. No active / inactive call. The stated detection limit is 0.0005 µg/ml; values near or below 0.001 µg/ml lie at the floor of the assay.

B1: BD57-0196 (protein)
chain 1: QVTLKESGPVLVKPTETLTLTCTVSGFSLNNAKMGVSLIRQPPGKALEWLGHIFSNDEKSYSTSLKSRLTISKDTSKSQVVLTMTNMDPVDTATYYCARILESGSGSYYTGDNWFDPWGQGTLVTVSS
chain 2: SSELTQPPSVSVSPGQTARITCSGDAFPNQYAYWYQQKPGQAPVLVIYKDSERPSGIPERFSGSSSGTKVTLTISGVQAEDEADYYCQSADSSGVVFGGGTKLTVL
B2: BD57-0200 (protein)
chain 1: QVHLVESGGGVVQPGRSLRLSCAASRFPFSDYGMHWVRQAPGKGLEWVAAISYDGTDKYYSGSVKGRFTISRDDSRNTLYLQMNSLRVEDTAVYYCARDSGRYGSGWSTTYYFGLDVWGQGTTVIVSS
chain 2: QSVLTQPPSVSAAPGQKVSISCSGSSSNIEHNHVSWYQQLPGTAPKLLIYDNNQRPSGIPDRFSGSKSGTSATLGITGLQTGDEAAYYCASWDSSLSLWVFGGGTKVTVL
B3: BD57-0201 (protein)
chain 1: QVQLVQSGAEVKKPGASVKVSCKASGYTFTSYYIHWVRQAPGQGLEWMGIINPSAGSTTYAQKFQGRVTMTRDTSTSTVYMELSSLRSEDTAFYYCARDIVLVPAANAFDIWGQGTMVTVSS
chain 2: EIVLTQSPATLSLSPGERATLACRASQSVSSYLAWYQQKPGQAPRLLIYDASNRATGIPARFSGSGSGTDFTLTISSLEPEDFAVYYCQQRSNWPRTWTFGQGTKVEIK
B4: BD57-0207 (protein)
chain 1: QVHLVQSGAEVKKTGSSVKVSCKASGGTFSSYVISWVRQAPGQGLEWMGGIIPVFGVPNYAQKFKGRVTITADESTGSAYMELSSLRSEDTAVYFCATGGVSGTKVYSMAVWGEGTAVTVSS
chain 2: QSALTQPPSASGSPGQSVTISCTGTSSDVGGFNYVSWYQQHPGKAPKLILYEVSQRPSGVPDRFSGSKSGNTASLTVSGLQADDEADYYCSSYGGSNNLIFGGGTKLTVL
B5: BD57-0217 (protein)
chain 1: EVQLVESGGGLVQPGGSLRLSCAASGFTFSTYDMHWVRQVTGKGLEWVSAIGTSGDRYYSDSVKGRFIISRDNAKNSLSLQMNNLRAGDTAVYYCARGDSNALNYYYMDVWGKGTTVTVSS
chain 2: DIQMTQSPSSLSASVGDRVTITCRASQTISNFLNWYQQKPGKAPSLLLYAASSLQSGVPSRFSGSGYGTEFTLTISNLQPEDFATYYCQQSYESPPWTFGQGTKVEIK
B6: BD57-0221 (protein)
chain 1: QLQLQESGPGLVKPSETLSLTCTVSGGSITNSGYQWGWIRQPPGKGLEWIANIYSTGGTYYNLSLKSRAIISIDTSKNRFSLKLTSVTAADTAVYYCARPAGQQGDWFDPWGQGILVTVSS
chain 2: SYVLTQPPSVSVAPGKTARITCGGDNIGSKNVHWYQQRPGQAPILVIYYDSDRPSGIPERFSGSNSGNTATLTISRVEAGDEADYYCQVWDSNIDLHYVFGTGTKVTVL
B7: BD57-0229 (protein)
chain 1: QVQLQESGPGLVRPSETLSLTCIVSTGSISSSPYYWEWIRLPPGKGLEWIGGISYSGSAYYNPSLRSRVSISIDTSKNQLSLTLSSVTAADTALYYCARRVITGTPPFDYWGQGTLVTVSS
chain 2: SYVLAQPPSVSVPPGKTARITCGGDNIGSKSVHWYQQKPGQAPLLVMFYDSDRPSGIPERFSGSNSGNTATLTISRVEAGDEADYYCQLWDPHVIFGGGTKLTVL
B8: BD57-0242 (protein)
chain 1: QVQLVQSGAEVKKPGSSVKVSCKASGDTSISYSIAWVRQAPGQGLQWMGRIIPIFGKANYAQKFQGRVTITADKSTSTAYMELSSLRSDDTAVYYCARGFGDYRWFDPWGQGTLVTVSS
chain 2: QSALTQPASVSGSPGQSITISCTGTNNDLDGYNFVSWYQQHPGKAPKVLIYDVSNRPSGVSNRFSGSKSGNTASLTISGLQAEDEADYYCGSYIHSTTPYLFGTGTTVTVL
B9: BD57-0243 (protein)
chain 1: EVQLVESGGGLVQPGGSLRLACAASGLIVSRNYMTWVRQAPGKGLEWVSVIYPGGSTFYADSVKGRFTISRDDSNNTLYLQMNSLRAEDTAVYYCARDLSVVGGFDIWGQGTTVIVSS
chain 2: DIVLTQSPGTLSLSPGERATLSCRASQSVSSSYLAWYQQKPGQAPRLLIYGASIRATGIPDRFSGSGSGTDFTLTISRLEPEDFAVYFCQQYGSSPAYTFGQGTKLEIK
B10: BD57-0247 (protein)
chain 1: EVQLVESGGDLVQPGGSLRLSCAASGFTFSSYDMHWVRQTTGKGLEWVSTIGTAGDTYYPDSVKGRFTISRENAKNSLYLQMNSLRAEDTAVYYCARGGYDNSGYYWFFDLWGRGTLVIVSS
chain 2: DIQMTQSPSSLSASVGDRVTITCRASQTISSYLNWYQQKAGKAPKLLIYAASSLQSGVPSRFSGSGSGTDFTLTISSLQPEDFATYYCQQSYSTFGTFGQGTRLEIK
B11: BD57-0251 (protein)
chain 1: EVQLVQSGAEVKKSGESLKISCKVSGYSFSNYWIGWVRQRPGKGLEWMGIIYPGDSDTRYSPSFQGQVTISADKSINTAYLQWSSLKASDTAMYYCAKPFGYSGYDPDYSYDMDVWGQGTTVTVSS
chain 2: QSALTQPASVSGSPGQSITISCTGASTDVGSYNLVSWYQQHPGKAPKLIIYEGSKRPSGVSNRFSGSKSGNTASLTISGLQAEDEADYYCSSYPGSSISVFGGGTKLAVL
B12: C1A-B12 (protein)
chain 1: EVQLVESGGGLIQPGGSLRLSCAASGFTVSSNYMSWVRQAPGKGLEWVSVIYSGGATYYADSVKGRFTISRDNSKNTLYLQMNSLRAEDTAVYYCARGDVSGYRYGLDYWGQGTLVTVS
chain 2: B10 chain 2 with M4L, T28G, N34A, A40P, S53T, S91L, Y92I, T94Y, F95P, R103K

biological target: SARS-CoV-2 Omicron BA.1 spike pseudovirus; assay: pseudovirus neutralization IC50; higher = weaker neutralization
Method: (§1)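 Single-round VSV luciferase pseudovirus mixed with antibody dilutions for 1 h and put on Huh-7 cells for about a day; IC50 from the dose curve.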

| Binder | pseudovirus neutralization IC50 [µg/mL] |
| --- | --- |
| B1 | > 10 |
| B2 | 0.556 |
| B3 | > 10 |
| B4 | > 10 |
| B5 | > 10 |
| B6 | 0.858 |
| B7 | 3.79 |
| B8 | 0.00961 |
| B9 | 0.0048 |
| B10 | > 10 |
| B11 | 0.477 |
| B12 | > 10 |

biological target: SARS-CoV-2 Omicron BA.2 spike pseudovirus; assay: as above
Method: as §1

| Binder | pseudovirus neutralization IC50 [µg/mL] |
| --- | --- |
| B1 | > 10 |
| B2 | 0.72 |
| B3 | > 10 |
| B4 | > 10 |
| B5 | > 10 |
| B6 | 1.42 |
| B7 | 7.6 |
| B8 | 0.00934 |
| B9 | 0.00815 |
| B10 | > 10 |
| B11 | 0.477 |
| B12 | > 10 |

biological target: SARS-CoV-2 Omicron BA.2.75 spike pseudovirus; assay: as above
Method: as §1

| Binder | pseudovirus neutralization IC50 [µg/mL] |
| --- | --- |
| B1 | > 10 |
| B2 | 0.554 |
| B3 | > 10 |
| B4 | 0.18 |
| B5 | > 10 |
| B6 | 1.3 |
| B7 | 4.68 |
| B8 | 0.00869 |
| B9 | 0.154 |
| B10 | > 10 |
| B11 | 0.322 |
| B12 | > 10 |

biological target: SARS-CoV-2 Omicron BA.5 spike pseudovirus; assay: as above
Method: as §1

| Binder | pseudovirus neutralization IC50 [µg/mL] |
| --- | --- |
| B1 | > 10 |
| B2 | 1.38 |
| B3 | > 10 |
| B4 | 2.87 |
| B5 | > 10 |
| B6 | 3.53 |
| B7 | > 10 |
| B8 | 0.0361 |
| B9 | 0.0125 |
| B10 | > 10 |
| B11 | 0.595 |
| B12 | > 10 |

biological target: SARS-CoV-2 Omicron BQ.1.1 spike pseudovirus; assay: as above
Method: as §1

| Binder | pseudovirus neutralization IC50 [µg/mL] |
| --- | --- |
| B1 | > 10 |
| B2 | 2.95 |
| B3 | > 10 |
| B4 | 5.46 |
| B5 | > 10 |
| B6 | 4.11 |
| B7 | > 10 |
| B8 | > 10 |
| B9 | 1.18 |
| B10 | > 10 |
| B11 | 1.51 |
| B12 | > 10 |

biological target: SARS-CoV-2 Omicron XBB spike pseudovirus; assay: as above
Method: as §1

| Binder | pseudovirus neutralization IC50 [µg/mL] |
| --- | --- |
| B1 | > 10 |
| B2 | 2.28 |
| B3 | > 10 |
| B4 | > 10 |
| B5 | > 10 |
| B6 | 3.26 |
| B7 | > 10 |
| B8 | 3.06 |
| B9 | 1.32 |
| B10 | > 10 |
| B11 | 1.64 |
| B12 | > 10 |

biological target: SARS-CoV-2 early D614G spike pseudovirus; assay: as above
Method: as §1

| Binder | pseudovirus neutralization IC50 [µg/mL] |
| --- | --- |
| B1 | > 10 |
| B2 | 1.46 |
| B3 | > 10 |
| B4 | 0.000695 |
| B5 | > 10 |
| B6 | 3.18 |
| B7 | 3.62 |
| B8 | 0.00109 |
| B9 | 0.00425 |
| B10 | > 10 |
| B11 | 1.33 |
| B12 | 0.0034 |
